The assay deals with staphylococcal enterotoxin B (SEB), Lot 1430 (Staphylococcus aureus, UniProt P01552 28-266). Put plainly: SPR. In general terms: SPR reads the build-up and loss of mass on a sensor chip optically.

B1: p1TA (HVKGKHLCP; CD28 116-124), form for SPR (peptide)
peptide: CHVKGKHLCPC
B1: the binding result is “binds”.

B2: p2TA (SPMLVAYD; CD28 8-15), form for SPR (peptide)
peptide: CSPMLVAYDC
Regarding B2, the binding result is reported as “binds”.

The values above are taken from publication PMC3172200 (PLoS Biology, 2011).
